Data taken from US20230172958A1, “USE OF COMPOUNDS FOR TREATING VIRAL INFECTIONS” (priority 2020, published 2023).

system: SARS-CoV-2; experiment: Neutral Red reduction of virus-induced cytopathic effect (primary CPE assay) in Vero 76 cells; assay type: cell-based; design: unit not given beside the values; conditions: CC50 divided by EC50

Compared with `COC1COC(Oc2ccc(-c3ccc4c(c3)OCO4)c3ccccc23)C(O)C1OC` (centres unmarked) [Compound of Formula E, 2-(1-(benzo[d][1,3]dioxol-5-yl)naphthalen-4-yloxy)-tetrahydro-4,5-dimethoxy-2H-pyran-3-ol], `O[C@H]1[C@H](O)COC(Oc2ccc(-c3ccc4c(c3)OCO4)c3ccccc23)[C@@H]1O` (stereo partly drawn) [Compound of Formula F, (3R,4S,5R)-2-(1-(benzo[d][1,3]dioxol-5-yl)naphthalen-4-yloxy)-tetrahydro-2H-pyran-3,4,5-triol] is higher in SI50: 7.1 for the first, 11 for the second.

`COc1cc2c(OCCCCN3CCOCC3)c3c(c(-c4ccc5c(c4)OCO5)c2cc1OC)C(=O)OC3` [Compound of Formula L, 4-(4-morpholinobutoxy)-9-(benzo[d][1,3]dioxol-5-yl)-6,7-dimethoxynaphtho[2,3-c]furan-1(3H)-one] and `COc1cc2c(OC3OCC(OC)C(OC)C3O)c3c(c(-c4ccc5c(c4)OCO5)c2cc1OC)C(=O)OC3` (centres unmarked) [Compound of Formula A, 9-(benzo[d][1,3]dioxol-5-yl)-6,7-dimethoxy-4-(tetrahydro-3-hydroxy-4,5-dimethoxy-2H-pyran-2-yloxy)naphtho[2,3-c]furan-1(3H)-one] are the same in SI50: 0 for the first, 0 for the second.

Compound `CCOC(=O)c1c(C(=O)OCC)c(-c2ccc3c(c2)OCO3)c2cc(OC)c(OC)cc2c1OC1OCC(OC)C(OC)C1O` (centres unmarked) [Compound of Formula D, diethyl 1-(benzo[d][1,3]dioxol-5-yl)-6,7-dimethoxy-4-(tetrahydro-3-hydroxy-4,5-dimethoxy-2H-pyran-2-yloxy)naphthalene-2,3-dicarboxylate] has an SI50 of 1.3.
